The list shows a part of the results, in another mix than the full data. Active and inactive are the calls of the source.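 How the source made its calls: active means highest replicate inhibition at or above 60% at 9 µM, even if other replicates fall short; inactive means all replicates below 60% inhibition.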

As usually defined, the inhibition is the change of the read-out against control, counted positive when it falls.

The assay deals with Kaposi's sarcoma herpesvirus LANA C-terminal domain (residues 932-1162) DNA binding. Description: inhibitors of KSHV C-LANA binding to DNA, primary screen, biochemical, fluorescence polarization, FAM-LBS DNA, MBP-C-LANA, single point (AID 504423).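 Further: 0% = neutral control wells and 100% = 4 µM acridine orange control.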 The following applies: at 9 µM, active compounds read high. (In general: Polarisation of emitted light reports the rotation of a fluorescent probe.)
For `CC(=O)Nc1ccc([As](=O)(O)O)c(O)c1`, the inhibition was inactive: -0.438%. In the case of `O=P(Nc1nccs1)(c1ccccc1)c1ccccc1`, the inhibition is inactive: 0.213%. For the compound `CC(C)C(=O)NC(Sc1ccccc1)C(Cl)(Cl)Cl` (configuration not stated), the inhibition is inactive: 1.21%. The same measure for `c1nnnn1CCn1cnnn1`: inactive: 0.709%; for `CN(C)C1(CNC(=O)c2ccc(Cl)c(S(N)(=O)=O)c2)CCCCC1`: inactive: -1.06%; for `O=P(Nc1ccccn1)(c1ccc(Br)cc1)c1ccc(Br)cc1`: inactive: 1.71%.

Take `COc1ccc(N)c([N+](=O)[O-])c1[N+](=O)[O-]`: the inhibition is inactive: 15%. The same measure for `C[C@H]1OP(=O)(Oc2ccccc2)[C@H](O)[C@H](O)[C@H]1N=[N+]=[N-]` (some centres not stated): inactive: -0.608%; for `O=P(Nc1nc2ccccc2s1)(c1ccccc1)c1ccccc1`: inactive: -0.465%. Turning to `O=[As](O)(c1ccccc1)c1ccc(O)cc1`, the inhibition was inactive: 0.685%. The value for `O=[N+]([O-])c1ncn(CCn2cnc([N+](=O)[O-])n2)n1` was inactive: 0.303%; that for `CC(=O)NC(SC(=S)N(C)C)C(Cl)(Cl)Cl` (configuration not stated) was inactive: 1.23%. In the case of `O=[N+]([O-])c1ccc(O)c(/C=N/Nc2ccc([N+](=O)[O-])cc2[N+](=O)[O-])c1`, the inhibition was inactive: 8.29%.

On to `O=C(OC1CN2CCC1CC2)c1cccc(Cl)c1` (configuration not stated), for which the inhibition is inactive: -0.853%. The same measure for `C(Cc1nn[nH]n1)Cc1nn[nH]n1`: inactive: -1.13%; for `Nc1ccc([As](=O)(O)c2ccc([N+](=O)[O-])cc2)cc1`: inactive: 0.344%. For the compound `Cc1ccc(C(=O)OC2CN3CCC2CC3)cc1` (configuration not stated), the inhibition is inactive: -0.297%. The same measure for `CC1CCC(C(C)C)C(OP(=O)(Nc2ccccn2)c2ccccc2)C1` (configuration not stated): inactive: 1.77%. The value for `Cc1nn(-c2ccccc2)c2c1P(=O)(N1CCOCC1)N(C)C(c1ccccc1)=N2` (configuration not stated) was inactive: -0.998%. The value for `CN(C)C1(CNC(=O)c2ccc(S(C)(=O)=O)cc2)CCCCC1` was inactive: 0.568%; that for `CCCC1OP(=O)(Nc2ccccc2)OCC1CC` (configuration not stated) was inactive: -0.583%. For the compound `O=C(/C=C/c1ccccc1)OC1CN2CCC1CC2` (configuration not stated), the inhibition is inactive: 0.367%. In the case of `O=P1(Nc2ncccn2)COc2ccccc2OC1`, the inhibition is inactive: -0.635%.

Take `Nc1cccc([As](=O)(O)c2ccccc2)c1`: the inhibition is inactive: 3.3%. Turning to `O=[As](O)(c1cccs1)c1cccs1`, the inhibition was inactive: -2.31%. On to `Cc1ccc(OCC(=O)OC2CN3CCC2CC3)cc1` (configuration not stated), for which the inhibition is inactive: 0.596%. The value for `NS(=O)(=O)c1cccc(NC(=O)COC(=O)C(O)(c2ccccc2)c2ccccc2)c1` was inactive: 1.03%; that for `O=P1(Nc2ccc(Br)cn2)COc2ccccc2OC1` was inactive: 0.383%; that for `CCOP(=O)(NC(=NC(C)c1ccccc1)NC(C)c1ccccc1)OCC` (configuration not stated) was inactive: -2.04%. The value for `CCC1=CC2Cc3nc4ccc(Cl)cc4c(N)c3C(C1)C2` (configuration not stated) was inactive: -2.21%; that for `O=P1(Nc2ccccn2)COc2ccccc2OC1` was inactive: 0.571%; that for `CCOP(=O)(Nc1ccc(C)cn1)OCC` was inactive: -0.755%. The value for `CC(C)(C)C(=O)NC(Sc1ncccn1)C(Cl)(Cl)Cl` (configuration not stated) was inactive: -0.794%; that for `Clc1n[nH]nc1-c1nn[nH][15n]1` was inactive: -1.45%.

As for `CN(C(=O)Cc1ccc(Cl)c(Cl)c1)[C@@H]1CCCC[C@H]1N1CCCC1`, the inhibition was inactive: 1.13%. Turning to `CC(C)/C=N\N=C(\N)N[N+](=O)[O-]`, the inhibition is inactive: 0.31%. As for `CC1(CBr)Cn2c(nc3ccccc3c2=O)S1` (configuration not stated), the inhibition was inactive: -0.296%. For `O=C(OC1CN2CCC1CC2)c1ccc(Cl)cc1` (configuration not stated), the inhibition was inactive: -1.3%. The same measure for `CS(=O)(=O)c1ccc(Cl)c(NC(=O)COC(=O)C(O)(c2ccccc2)c2ccccc2)c1`: inactive: 0.798%; for `O=[As](O)(O)c1cccnc1`: inactive: -1.62%. Consider `COc1cc(C(=O)NCC2(N3CCOCC3)CCCCC2)cc(Cl)c1OC(C)C`, for which the inhibition is inactive: 1.77%.

For `Cc1cccc(OCC(=O)OC2CN3CCC2CC3)c1` (configuration not stated), the inhibition is inactive: 0.828%.

For `O=[As](O)(c1cccc(O)c1)c1cccc(O)c1`, the inhibition was inactive: 1.36%. The value for `Nc1cccc2c([As](=O)(O)O)cccc12` was inactive: -2.63%.

For `Cc1ccc(NCCc2c([N+](=O)[O-])cc([N+](=O)[O-])cc2[N+](=O)[O-])cc1`, the inhibition is inactive: -1.04%.

With `CCCOP(=S)(Nc1nc(N)cc(=O)[nH]1)OCCC`, the inhibition is inactive: 4.24%.

As to `CCOP(=O)(Nc1cccc2ccccc12)OCC`, the inhibition is inactive: 0.376%. The same measure for `COc1cc(C2NCCC3(OCCO3)C2(C)C)cc(OC)c1OC` (configuration not stated): inactive: 0.992%. For the compound `O=P(Nc1nccs1)(Oc1ccccc1)Oc1ccccc1`, the inhibition is inactive: 0.785%. As to `O=P(Nc1nccs1)(c1ccccc1)c1nc2ccccc2s1` (configuration not stated), the inhibition is inactive: 3%. The same measure for `CCOP1(=S)c2c(C)nn(CCC#N)c2N=C(c2ccccc2F)N1C` (configuration not stated): inactive: 2.22%; for `CS(=O)(=O)c1cc([N+](=O)[O-])c2no[n+]([O-])c2c1`: inactive: 2.4%. The same measure for `O=C(O)COc1ccc([As](=O)(O)O)cc1[N+](=O)[O-]`: inactive: -0.796%. The value for `Nc1ccccc1[As](=O)(O)c1ccccc1` was inactive: 1.3%. In the case of `NC(=O)Nc1ccc([As](=O)(O)O)cc1`, the inhibition was inactive: 0.486%.

In the case of `CCOP1(=S)c2c(C)nn(CCC#N)c2N=C(c2ccc(F)cc2)N1C` (configuration not stated), the inhibition was inactive: -0.853%. As for `CN(C(=O)Cc1ccccc1)[C@@H]1CC[C@]2(CCCO2)C[C@H]1N1CCCC1`, the inhibition was inactive: -2.44%.

Turning to `N#CCCN(C(=O)COC(=O)C(O)(c1ccccc1)c1ccccc1)c1ccc(F)cc1`, the inhibition is inactive: -0.513%. `CN(C(=O)Cc1ccc(Cl)c(Cl)c1)[C@H]1CC[C@@]2(CCCO2)C[C@@H]1N1CCCC1`: the inhibition was inactive: -1.81%. With `O=[N+]([O-])c1ccc2c(c1)nnn2O`, the inhibition is inactive: -2.38%. The value for `CN(C)C(=O)c1cc([N+](=O)[O-])cc2c1-c1c(cc([N+](=O)[O-])cc1[N+](=O)[O-])C2=O` was inactive: 1.36%. The same measure for `O=[N+]([O-])c1ccc(-c2cc([N+](=O)[O-])c(O)c([N+](=O)[O-])c2)cc1`: inactive: 1.02%. On to `COc1cc(C(=O)NCC2(N3CCOCC3)CCCCC2)ccc1OCC(C)C`, for which the inhibition was inactive: 0.324%. The same measure for `C[As](=O)(O)c1cccc(C(=O)O)c1`: inactive: -1.69%; for `O=[As](O)(c1ccc(O)cc1)c1ccccc1O`: inactive: -5.11%.

With `Cc1ccc(OP(=O)(Nc2ccc([N+](=O)[O-])cn2)Oc2ccc(C)cc2)cc1`, the inhibition was inactive: 2.54%. The same measure for `Cc1ccc2nc3c(c(C)c2c1)CC(C(Cl)Cl)S3` (configuration not stated): inactive: 2.04%; for `ClCCSc1nnc(-c2cccnc2)o1`: inactive: -0.333%.

As for `COC(=O)C1(C)COP(=O)(N2CCCCCC2)OC1` (configuration not stated), the inhibition was inactive: -0.852%. For `CC(C)c1ccc(OP(=O)(Nc2ccccn2)Oc2ccccc2F)cc1` (configuration not stated), the inhibition is inactive: -1.4%.

Consider `O=[N+]([O-])c1cc([N+](=O)[O-])c(-c2ccn[nH]2)s1`, for which the inhibition was inactive: 0.28%.

As for `CC(C)NC(=O)NP(=O)(Oc1ccccc1)Oc1ccccc1`, the inhibition was inactive: 1.7%. The value for `O=C(OC1CN2CCC1CC2)c1cccc2[nH]cnc12` (configuration not stated) was inactive: 1.19%; that for `CCN(CC)C(=S)SC(NC=O)C(Cl)(Cl)Cl` (configuration not stated) was inactive: -0.247%. The same measure for `Cc1c2c(nc3ccccc13)SC(C(Cl)Cl)C2` (configuration not stated): inactive: -0.623%; for `Cc1cc(=O)[nH]c(N[N+](=O)[O-])n1`: inactive: -1.66%. The value for `O=C(OC1CN2CCC1CC2)C12CC3CC(CC(C3)C1)C2` (configuration not stated) was inactive: -0.0656%. Take `O=P1(N(CCCl)CCCl)OCCCN1CCCl` (configuration not stated): the inhibition is inactive: -0.193%. The same measure for `O=P1(N(CCCl)CCCl)Nc2ccccc2N1`: inactive: 1.46%; for `COc1cc(I)ccc1[As](=O)(O)O`: inactive: -0.627%. Regarding `COc1ccc2nc(NP(=O)(c3ccccc3)c3ccccc3)sc2c1`, the inhibition was inactive: 0.0677%. The value for `O=[N+]([O-])c1cc(Oc2ccc([N+](=O)[O-])cc2C(F)(F)F)cc([N+](=O)[O-])c1` was inactive: 2.5%; that for `COc1ccc(N/C(=N/P(=O)(N2CCOCC2)N2CCOCC2)N2CCOCC2)cc1` was inactive: 2.21%; that for `COP1(=S)c2c(C)nn(CCC#N)c2N=C(c2ccc(F)cc2)N1C` (configuration not stated) was inactive: 1.32%.

Turning to `O=C(Nc1ccncc1[N+](=O)[O-])c1ccc([N+](=O)[O-])cc1[N+](=O)[O-]`, the inhibition was inactive: -1.79%. Take `O=C(COc1ccccc1)OC1CN2CCC1CC2` (configuration not stated): the inhibition was inactive: 1.26%. The same measure for `O=C(OC1CN2CCC1CC2)c1cccc([N+](=O)[O-])c1` (configuration not stated): inactive: 0.00816%; for `CCOC(=O)c1ccc(NC(=O)C(C)(CCl)SC)cc1` (configuration not stated): inactive: 0.807%. The same measure for `CCC(C)N(CC(C)C)C(=S)SC(NC(C)=O)C(Cl)(Cl)Cl` (configuration not stated): inactive: -0.253%. The same measure for `CCOC(=O)Nc1ccc([As](=O)(O)O)c(O)c1`: inactive: -1.21%; for `CC1CCNP(=O)(N(CCCl)CCCl)O1` (configuration not stated): inactive: 0.144%; for `Cc1cc(SC(NC(=O)c2ccccc2)C(Cl)(Cl)Cl)nc(C(C)C)n1` (configuration not stated): inactive: -0.254%. With `CCCCOc1ccc(C(=O)NCC2(N3CCCCC3)CCCCC2)cc1OC`, the inhibition was inactive: -0.371%. The same measure for `CCOC(=O)Nc1cccc([As](=O)(O)O)c1`: inactive: 0.0562%; for `Cc1cc(SC(NC=O)C(Cl)(Cl)Cl)ncn1` (configuration not stated): inactive: -0.79%; for `O=P(Nc1ccccn1)(c1cccc2ccccc12)c1cccc2ccccc12`: inactive: -0.733%.

As for `O=[N+]([O-])c1ccc(Nc2ccc(Oc3ccc([N+](=O)[O-])cc3[N+](=O)[O-])cc2)c([N+](=O)[O-])c1`, the inhibition is inactive: -0.0947%.

The values are drawn from PubChem BioAssay AID504423 (Broad Institute, 2011).
